US20230167479A1, “RESEARCH INTO ANTIMICROBIAL RESISTANCE BY THE FIELD FLOW FRACTIONATION TECHNIQUE” (UNIVERSITÉ DE LIMOGES, priority 2020, published 2023)

What was measured:
[1] = system: E. coli strain ATCC 25922; assay: SdFFF elution-profile sensitivity test, protocol of Example 2 / FIG. 4; assay type: cell-based
Method: (§1) The results of the antimicrobial resistance analysis are expected starting 18-26 hours after the sample was cultured on agar.
(§2) The field-flow fractionation device is set according to patent EP1679124. The device comprises an injection system where the sample is taken, the tubing bringing the sample from the injector to the separation channel via a first rotary joint, the separation channel contained in a centrifugation bowl, the rotation of which is ensured by an electric motor itself controlled manually or via a suitable computer device, thus allowing control of the intensity of the multigravitational field, the tubing bringing the separated species from the channel to the detector via the second rotary joint, and finally the detector.
(§3) Bacterial colonies were incubated in a Mueller-Hinton (MH) culture medium with an inoculum of 0.5 McFarland in the absence or in the presence of antibiotic, for 2 hours at 37° C. and under stirring. The liquid medium MH is the reference medium used for the reference method for determining MIC values, called the dilution method in a liquid medium.
(§4) After incubation for 2 h, the culture medium was centrifuged and then taken up in a volume of 0.5 ml of PBS.
(§5) According to the handlings shown in FIG. 5, the calculation of the percentage of variation in the retention factor or PΔR is carried out as follows: ?
(§6) Example 2: A new analysis protocol was established according to FIG. 4, consistent with the clinical implementation of conventional antibiograms, making it possible to reduce to 26 hours post-sampling/isolating the time for obtaining the test results.
(§7) Thus, such assays were carried out directly on bacterial suspensions, obtained from colonies of the E. coli strain ATCC 25922 and ATCC 35218 cultured for 16-24 hours on agar medium, and incubated for 2 hours in the presence or in the absence of antibiotic (Ampicillin, FIGS. 5A/B).

[2] = system: E. coli strain ATCC 35218; assay: as above; assay type: cell-based
Method: as §1, §2, §3, §4, §5, §6, §7

[3] = treated with 4 mg/ml ampicillin

With `CC1(C)S[C@@H]2[C@H](NC(=O)[C@H](N)c3ccccc3)C(=O)N2[C@H]1C(=O)O` [ampicillin, Ampicillin] the “Robs (retention factor)” value [1, 3] was 0.408, the “retention time (tr)” value ([1]; treated with 4 mg/ml of ampicillin, average) was 2.36 min and the “Robs (retention factor)” value [2, 3] was 0.269. The “retention time (tr)” value ([2]; treated with 4 mg/ml of ampicillin, average, t0 0.96 minute) was 3.58 min.
